Measurements: US20120122128A1 (ALLERGAN, published 2012)

By UniProt entry, the sequences of proteins in these tests, tags left out. Residues count along the entry.
UniProt P60881, 1-197 limits assumed: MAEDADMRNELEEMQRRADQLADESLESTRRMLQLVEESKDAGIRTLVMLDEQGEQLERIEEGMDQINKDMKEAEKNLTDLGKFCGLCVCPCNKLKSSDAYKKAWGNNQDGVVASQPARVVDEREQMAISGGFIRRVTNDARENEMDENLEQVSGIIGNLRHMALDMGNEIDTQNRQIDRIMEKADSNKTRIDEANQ

Legend:
[1] = target: T1, SNAP-25197 cleavage product in PC12 cells (rat (PC12 cell line), UniProt P60881 1-197); assay: immunocytochemistry of PC12 cells +/- GFP-BoNT/A-LC, ascites 1:10
[2] = target: T1, SNAP-25197 cleavage product in PC12 …; assay: cell-based cleavage assay, Western blot, ascites

B1: α-SNAP-25 monoclonal antibody 1D3B8 (antibody, V domains shown)
VH: VKLQESGAELVKPGASVKISCKASGYIFTDHALHWVRQKPEQGLEWIGYIFPGNGNIEYNEKFKGKATLTADKSSSTAYMQLNSLTSGDSAMYFCKKMDYWGQGTTVTVSS
VL: DVLMTQTPLSLPVSLGDQASISCRSSQSIVHSNGNTYLEWYLQKPGQSPKLLIYKVSNRFSGVPDRFSGSGSGTDFTLKISRVEAEDLGVYYCFQGSHVPPTFGAGTKLELKR
binding result [1]: binds

B2: α-SNAP-25 monoclonal antibody 3C3E2 (antibody, V domains shown)
VH: QVQLQESGPELVKPGASVKMSCKASGYTFTNYVIHWVKQKPGQGLEWIGYINPYNDGSKYNEKFKGKASLTSDKSSSTAYMELSSLTSEDSAVYYCARHLANTYYYFDYWGQGTTLTVSS
VL: DVVLTQSPATLSVTPGDRVSLSCRASQNIGNYLHWYQQKSHESPRLLIKYASQSISGIPSRFSGSGSVTDFTLNINSVETEDFGMYFCQQSDTWPLTFGAGTKLELKR
binding result [2]: binds
